Compound potency records, mixed from different reports. Data source: NIAID ChemDB in PubChem.

Common to all: target-level tests; agent: Hepatitis C virus; protein: NS5B polymerase

a–b is a range or a potency band. Neighbouring rows are from separate reports. Inhibition is in % at the dose shown (toxicity tests: loss of growth or viability). Blank or dashed fields: not listed here. ICn is the concentration giving n% inhibition.

smiles,dose,strain,measure,result
[N-]=[N+]=Nc1ccc(C[C@H](NC(=O)c2ccc3c(c2)nc(-c2ccoc2)n3C2CCCCC2)C(=O)O)cc1OCC(=O)O,,,IC50,<1 µM
O=C(O)/C=C/c1ccc(NC(=O)C(NC(=O)c2ccc3c(c2)nc(-c2ccoc2)n3C2CCCCC2)c2cccs2)cc1,,,IC50,0.5–5 µM
O=C(O)c1ccc2c(c1)nc(-c1ccc3nc(-c4ccc(-c5ccccc5)cc4)ccc3c1)n2C1CCCCC1,100 µM,,inhibition,92.52%
O=C(NC1(C(=O)Nc2ccc3c(c2)cc(C(=O)O)n3Cc2ccccc2)CCCC1)c1ccc2c(c1)nc(-c1ccoc1)n2C1CCCCC1,,,IC50,0.5–5 µM
O=C(O)c1ccc2c(c1)nc(-c1ccc3nc(-c4ccc(Oc5ccc(Cl)cc5)cc4Cl)ccc3c1)n2C1CCCCC1,33 µM,,inhibition,99.19%
COc1ccc(CNC(=O)c2ccc3c(c2)nc(-c2ccccn2)n3C2CCCCC2)c(OC)c1OC,,,IC50,10–25 µM
CCC[C@]1(CC(=O)O)OCCc2c1[nH]c1c(C)ccc(C#N)c21,,BK (genotype 1B),IC50,0.3 µM
Nc1ncc(-c2ccc(NC(=O)C3(NC(=O)c4ccc5c(c4)nc(-c4ccoc4)n5C4CCCCC4)CCCC3)cc2)cn1,,,IC50,0.5–5 µM
O=C(NC(=O)c1ccc2c(c1)nc(-c1ccoc1)n2C1CCCCC1)OCc1ccccc1,,,IC50,5–10 µM
COc1ccc(-c2ccc(F)cc2)c(-c2ccc3cc(-c4nc5cc(C(=O)O)ccc5n4C4CCCCC4)ccc3n2)c1,33 µM,,inhibition,100%
O=C(N[C@H](C(=O)O)c1c[nH]c2ccc(O)cc12)c1ccc2c(c1)nc(-c1ccc3ccccc3n1)n2C1CCCCC1,,,IC50,5–10 µM
O=C(O)/C=C/c1ccc(NC(=O)C2(NC(=O)c3ccc4c(c3)nc(-c3cccs3)n4C3CCC3)CCCC2)cc1,,,IC50,0.5–5 µM
O=C(O)c1ccc2c(c1)nc(-c1ccc3nc(-c4ccccc4-c4ccccc4)ccc3c1)n2C1CCCCC1,33 µM,,inhibition,100.1%
COc1ccc([C@H](C)NC(=O)c2ccc3c(c2)nc(-c2ccccn2)n3C2CCCCC2)cc1OC,,,IC50,1–5 µM
O=C(O)/C=C/c1ccc(NC(=O)C2(NC(=O)c3ccc4c(c3)nc(-c3ccccn3)n4C3CCCCC3)CCCC2)cc1,,,IC50,<0.5 µM

2 of the rows above, restated:

| smiles | dose | strain | measure | result |
|---|---|---|---|---|
| O=C(NC1(C(=O)Nc2ccc3c(c2)cc(C(=O)O)n3Cc2ccccc2)CCCC1)c1ccc2c(c1)nc(-c1ccoc1)n2C1CCCCC1 |  |  | IC50 | 0.5–5 µM |
| O=C(O)c1ccc2c(c1)nc(-c1ccc3nc(-c4ccc(Oc5ccc(Cl)cc5)cc4Cl)ccc3c1)n2C1CCCCC1 | 33 µM |  | inhibition | 99.19% |